Test results reported in ChEMBL document CHEMBL4392846, “Identification and design of novel small molecule inhibitors against MERS-CoV papain-like protease via high-throughput screening and molecular modeling” (Bioorg Med Chem, 2019).

Molecular target: Replicase polyprotein 1ab (Middle East respiratory syndrome-related coronavirus (isolate UnitedKingdom/H123990006/2012) (Betacoronavirus England 1) (Humancoronavirus EMC)) (UniProt K9N7C7)
Experiment: Ratio of Kd for MERS-CoV papain-like protease in presence of Z-Arg-Leu-Arg-Gly-Gly-AMC to Kd for MERS-CoV papain-like protease in absence of Z-Arg-Leu-Arg-Gly-Gly-AMC

Cc1cc(C)n(S(=O)(=O)c2ccc(N)cc2)c(=O)n1
Ratio: 7
